# Measured values reported in patent US20260034194A1, “PHARMACEUTICAL COMPOSITIONS AND METHODS OF TREATING PSP” (priority 2022, published 2026).
# B1: RcSxph: Rana (Lithobates) catesbeianus (American bullfrog) saxiphilin, SEQ ID NO: 1 (protein)
# chain: MAPTFQTALFFTIISLSFAAPNAKQVRWCAISDLEQKKCNDLVGSCNVPDITLVCVLRSSTEDCMTAIKDGQADAMFLDSGEVYEASKDPYNLKPIIAEPYSSNRDLQKCLKERQQALAKKMIGHYIPQCDEKGNYQPQQCHGSTGHCWCVNAMGEKISGTNTPPGQTRATCERHELPKCLKERQVALGGDEKVLGRFVPQCDEKGNYEPQQFHGSTGYSWCVNAIGEEIAGTKTPPGKIPATCQKHDLVTTCHYAVAMVKKSSAFQFNQLKGKRSCHSGVSKTDGWKALVTVLVEKKLLSWDGPAKESIQRAMSKFFSVSCIPGATQTNLCKQCKGEEGKNCKNSHDEPYYGNYGAFRCLKEDMGDVAFLRSTALSDEHSEVYELLCPDNTRKPLNKYKECNLGTVPAGTVVTRKISDKTEDINNFLMEAQKRQCKLFSSAHGKDLMFDDSTLQLALLSSEVDAFLYLGVKLFHAMKALTGDAHLPSKNKVRWCTINKLEKMKCDDWSAVSGGAIACTEASCPKGCVKQILKGEADAVKLEVQYMYEALMCGLLPAVEEYHNKDDFGPCKTPGSPYTDFGTLRAVALVKKSNKDINWNNIKGKKSCHTGVGDIAGWVIPVSLIRRQNDNSDIDSFFGESCAPGSDTKSNLCKLCIGDPKNSAANTKCSLSDKEAYYGNQGAFRCLVEKGDVAFVPHTVVFENTDGKNPAVWAKNLKSEDFELLCLDGSRAPVSNYKSCKLSGIPPPAIVTREESISDVVRIVANQQSLYGRKGFEKDMFQLFSSNKGNNLLFNDNTQCLITFDRQPKDIMEDYFGKPYYTTVYGASRSAMSSELISACTIKHC
# B2: NpSxph: Nanorana parkeri (High Himalaya frog) saxiphilin, SEQ ID NO: 2 (protein, listed as Nanorana parkeri)
# chain: MALTFHTALYFTIVGLSFAASDARHVQWCTISHLEQKKCNDLVGSCNVPDITLACVYRSSTENCMAAIKDGQADAMFLDSGDVYKASLDHYNLKPIIAEPYSLHRELTKCLKHRQESLGGDKMVKGRYIPQCDEKGNYHPVQCHASTGYCWCVNANGEKIEGTNTTPVQTPPTCPSQVLTKCLKERQEALGGKRIAIGRYIPQCDEQGNYRPMQCHGSTGYCWCVNAIGEKIEGTNTPPGNTQPTCQSHDWDTCHYAVAVVKNSSTFQFGQLKGKRSCHSGLSKTDGWNAPVNVFVEKKLLPWDGLAKGSIERAVSKFFSASCIPGATETNLCKQCIGEEEKKCKSSHDEPYYGDHGAFRCLQEDKGDVAFLKNTALPDEHSGVYELLCPDNTRKPLNKYKECNLGKVPADAVVTRKAGDKTKDINDFLLEAQKKKCKLFGSPHGKDLMFDDSTTHLAPLPSEIDAFFFLGVKWYNAMKALTEDVKLPSKNKVRWCTINKPEMMKCKDWAAVSGGAIACTEASCPEHCVKQILKGEADAVTLDVQYMYMALMCGLLPAVEEYPNKDDFHPCQIPGSTIKDFGTKRAVALVKKSNKDIKWNNLKGKKSCHTHVGDIPGWVIPAGLISNQNDNIDIESFFGESCAPGSDTNSKLCKLCIGDPENPKASTRCSLSDKEAYYGNEGAFRCLVEKGDVAFVPHTVVFANTDGKNPAEWAKDLKSEDFEILCLDGSRAPVTNYRGCNLSGLPPRAIVTREESVSDVVRILINQQSLYGRNGFEKDMFQMFSSAKGQNLLFNDETQCLIEFDRQPKDIMEDYFGVRYYTAVYSASRSAVPSELIPACTFKHC
# Assay type: binding
# Details: ITC, STX, 25° C.
molecule,measurement,value
B1,N (sites),1.02 ± 0.01 sites
B2,N (sites),0.92 ± 0.02 sites
